The target in this experiment is neuraminidase of H5N1 influenza virus A/Hanoi/30408/2005 (clone 7), oseltamivir sensitive strain (Influenza A virus, UniProt Q3C1C4). Briefly: Neuraminidase inhibitory activity test, oseltamivir sensitive strain.

The IC50 is the midpoint of a concentration-inhibition curve. Low readings indicate higher potency, high ones lower potency.

Compound `CC(=O)N[C@H]1[C@H]([C@H](O)[C@H](O)CO)OC(C(=O)O)=C[C@@H]1N=C(N)N` [Zanamivir, reference compound] showed a half-inhibitory concentration (IC50) of 0.96 nM.

Values taken from patent US20140018418A1 (priority 2007, published 2014).
